Measured values reported in PubChem BioAssay AID1794808 (University of Kansas High Throughput Screening Laboratory, 2022).
Several values for one entry are separate records, joined by “and”; a condition that tells them apart may be missing. Identical values can stand only once. The list shows a part of the results, in another mix than the full data. Activity calls are given as the source filed them. Rule as the data show it: active = inhibition above about 50%; inactive = the rest.

These compounds were tested on Plasmodium falciparum apicoplast DNA polymerase (apPOL) (assay: Pf-apPOL inhibitors, biochemical, fluorescence (AID 1794808)). Conditions: Recombinant Pf-apPOL, molecular beacon fluorescence, 1.5 h; at 10 µM; active compounds read high.
`O=C(Nc1nnc(N=Cc2ccc([N+](=O)[O-])s2)s1)c1cc([N+](=O)[O-])cc([N+](=O)[O-])c1` was tested, and the inhibition was inactive: -3.8%. With `O=C(NC(Nc1cccc([N+](=O)[O-])c1)C(Cl)(Cl)Cl)c1cc([N+](=O)[O-])cc([N+](=O)[O-])c1` (centres undefined) the inhibition was inactive: -1.9%. In the case of `O=[N+]([O-])c1cc2c(c([N+](=O)[O-])c1)-c1c(cc([N+](=O)[O-])cc1[N+](=O)[O-])C2=Cc1ccccc1O`, the inhibition is reported as inactive: -1.1%. `O=C(NC(Sc1ncccn1)C(Cl)(Cl)Cl)c1ccccc1` (centres undefined) was tested, and the inhibition was inactive: -0.1%. `CC1C(=O)OC(C(Cl)(Cl)Cl)N1C(O)C(Cl)(Cl)Cl` (centres undefined) was tested, and the inhibition was inactive: -7.2%. In the case of `COc1ccc(N=Cc2c([N+](=O)[O-])cc([N+](=O)[O-])cc2[N+](=O)[O-])cc1`, the inhibition is reported as inactive: 0%. With `Nc1nonc1OCCOc1nonc1N` the inhibition was inactive: -1.8%. For `O=C(Cn1cnc([N+](=O)[O-])n1)NCCO[N+](=O)[O-]`, the inhibition was inactive: 0.2%. For `O=[N+]([O-])c1cc(S(=O)(=O)c2cc([N+](=O)[O-])c(O)c([N+](=O)[O-])c2)cc([N+](=O)[O-])c1O`, the inhibition was inactive: -0.7%. In the case of `Cc1nc2c(C)cccc2c2c1CC(C(Cl)Cl)S2` (centres undefined), the inhibition is reported as inactive: -3.5%. For `O=[N+]([O-])c1ccc(-n2ncc3ccc([N+](=O)[O-])cc32)c([N+](=O)[O-])c1`, the inhibition was inactive: 2%. For `O=C(NC(Nc1ccc([N+](=O)[O-])cc1)C(Cl)(Cl)Cl)c1cc([N+](=O)[O-])cc([N+](=O)[O-])c1` (centres undefined), the inhibition was inactive: -0.8%. For `CN(C)C(=O)NC(SC1=NCCS1)C(Cl)(Cl)Cl` (centres undefined), the inhibition was inactive: -8.2%. For `O=C(OC1CN2CCC1CC2)c1ccc(Cl)cc1` (centres undefined), the inhibition was inactive: -3.9%. `CN(C(=O)Cc1ccc(Cl)c(Cl)c1)[C@@H]1CC[C@]2(CCCO2)C[C@H]1N1CCCC1` was tested, and the inhibition was inactive: -7.8%. In the case of `CN(C(=O)Cc1ccccc1)[C@@H]1CC[C@]2(CCCO2)C[C@H]1N1CCCC1`, the inhibition is reported as inactive: 10.4%. `O=[N+]([O-])c1ccc(Oc2c([N+](=O)[O-])cc(C(F)(F)F)cc2[N+](=O)[O-])cc1` was tested, and the inhibition was inactive: -3.6%. With `O=P(Nc1nccs1)(Oc1ccccc1)Oc1ccccc1` the inhibition was inactive: -1.6%. In the case of `Cc1ccc(S(=O)(=O)N2CC(=O)SC2C(Cl)(Cl)Cl)cc1` (centres undefined), the inhibition is reported as inactive: -5.2%. For `CC1(C)SC2N(C(=O)C2(Br)Br)C1C(=O)O` (centres undefined), the inhibition was inactive: -10%. With `Cc1c(N=Cc2ccc([N+](=O)[O-])cc2)cc([N+](=O)[O-])cc1[N+](=O)[O-]` the inhibition was inactive: -16.3%. In the case of `CN1CC(=O)NC1=NP(=O)(OCc1ccccc1)OCc1ccccc1`, the inhibition is reported as inactive: 2.9%. `CCOC(=O)C(=NNc1ccc([N+](=O)[O-])cc1)N1CC1` was tested, and the inhibition was inactive: 12.9%. `Cc1cc(C)nc(SC(NC(=O)c2ccccc2)C(Cl)(Cl)Cl)n1` (centres undefined) was tested, and the inhibition was inactive: -1.6%. In the case of `O=[N+]([O-])c1ccc(C(O)CNc2c([N+](=O)[O-])cc(C(F)(F)F)cc2[N+](=O)[O-])cc1` (centres undefined), the inhibition is reported as inactive: -22.2%. In the case of `COc1cccc(OP(=O)(Nc2ccccn2)Oc2cccc(OC)c2)c1`, the inhibition is reported as inactive: -4.8%. In the case of `O=[N+]([O-])c1ccc(-n2ncc3c([N+](=O)[O-])cc([N+](=O)[O-])cc32)cc1`, the inhibition is reported as inactive: -0.9%. For `COc1ccccc1OP(=O)(Nc1ccccn1)Oc1ccccc1OC`, the inhibition was inactive: 1.2%. `Cc1ccc(C(=O)NC(SC2=NCCS2)C(Cl)(Cl)Cl)cc1` (centres undefined) was tested, and the inhibition was inactive: -0.4%. In the case of `COc1cc(NC(=O)Cn2nc([N+](=O)[O-])c([N+](=O)[O-])c2C)cc([N+](=O)[O-])c1`, the inhibition is reported as inactive: -0.2%. For `O=C(NC(SC1=NCCS1)C(Cl)(Cl)Cl)c1ccc([N+](=O)[O-])cc1` (centres undefined), the inhibition was inactive: 0.6%. `Nc1nonc1OCc1nonc1COc1nonc1N` was tested, and the inhibition was inactive: -0.7%. In the case of `O=C(NC(Sc1ccc(Cl)cc1)C(Cl)(Cl)Cl)c1ccco1` (centres undefined), the inhibition is reported as inactive: 4.3%. `O=C(c1cc([N+](=O)[O-])c(Cl)c([N+](=O)[O-])c1)c1cc([N+](=O)[O-])c(Cl)c([N+](=O)[O-])c1` was tested, and the inhibition was inactive: -2.8%. For `CN(C(=O)Cc1ccc(Cl)c(Cl)c1)[C@@H]1CCCC[C@@H]1N1CCCC1`, the inhibition was inactive: -16.3%. For `O=C(NC1CCS(=O)(=O)C1)NP(=S)(Oc1ccccc1)Oc1ccccc1` (centres undefined), the inhibition was inactive: -0.9%. `Cc1c([N+](=O)[O-])c([N+](=O)[O-])nn1CC(=O)Nc1ccc([N+](=O)[O-])cc1Cl` was tested, and the inhibition was inactive: 0.7%. `O=C1CCC([N+](=O)[O-])([N+](=O)[O-])CN1CCCCN1CC([N+](=O)[O-])([N+](=O)[O-])CCC1=O` was tested, and the inhibition was inactive: 5.4%. `Cc1cc(SC(NC(=O)C(C)(C)C)C(Cl)(Cl)Cl)ncn1` (centres undefined) was tested, and the inhibition was inactive: 1.4%. In the case of `Cc1c(N=Cc2ccc([N+](=O)[O-])s2)cc([N+](=O)[O-])cc1[N+](=O)[O-]`, the inhibition is reported as inactive: -1.6%. In the case of `COc1cc(Br)c([N+](=O)[O-])nc1[N+](=O)[O-]`, the inhibition is reported as inactive: -1.6%. With `CCOP(=Nc1nc2ccccc2n2nnnc12)(OCC)OCC` the inhibition was inactive: -5%. `CN(C(=O)Cc1ccc(Cl)c(Cl)c1)[C@H]1CCCC[C@@H]1N1CCCC1` was tested, and the inhibition was inactive: -11.5% and inactive: 7.1%. In the case of `CC(C)(c1cc([N+](=O)[O-])c(O)c([N+](=O)[O-])c1)c1cc([N+](=O)[O-])c(O)c([N+](=O)[O-])c1`, the inhibition is reported as inactive: -6.9%. For `CN1C(=O)C2C(NC(=NCCN3CCOCC3)N2C)N(C)C1=O` (centres undefined), the inhibition was inactive: -5.8%. `C1CN(c2nonc2-[n+]2nc3nonc3[n-]2)CCO1` was tested, and the inhibition was inactive: -0.9%. In the case of `O=C(Nc1nnc(N=Cc2ccc([N+](=O)[O-])s2)s1)c1ccc([N+](=O)[O-])cc1[N+](=O)[O-]`, the inhibition is reported as inactive: -5.5%. For `CC(=O)NC(Sc1ccc(Cl)cc1)C(Cl)(Cl)Cl` (centres undefined), the inhibition was inactive: -9%. `N=C(N)SCC(Br)CN1C(=O)c2ccccc2C1=O` (centres undefined) was tested, and the inhibition was inactive: -5.9%.
